Data: patent US20250255894A1, “INHIBITORS OF EIF4A” (published 2025)

System: H1N1
Assay: Low dose serial passage of H1N1 in MDCK cells, plaque assay

CC(N)C12CC3CC(CC(C3)C1)C2 (centres unmarked)
viral titre in passage P2 (MDCK cells, NC 20 μM or RIM 1 μg/ml, 48 h pi): viral titre increased significantly
resistance on repeat treatment (serial passage P0 to P2): resistance to RIM increased during passage P2
